{
  "source": "patent US12702649B2",
  "about": "“Method of treating cystic fibrosis airway disease” (priority 2016, dated 2026)",
  "conditions": "sputum mixed 1:1 (w/v) with 300 mM tromethamine ± 1197 mM (7%) NaCl, compared to hypertonic or isotonic saline",
  "data": [
    {"smiles": "NC(CO)(CO)CO", "note": "[tromethamine, tris(hydroxymethyl)aminomethane]", "values": [
      {"measurement": "CF sputum pH", "value": "raised the pH of CF sputum"}
    ]}
  ]
}
